PubChem BioAssay AID624099 | ICCB-Longwood | 2012
In all, the deposit lists about 21,000 reagents; this is an unselected part. Of all reagents, 497 (2.4%) were called active. 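Higher z means weaker E2 silencing; only reporter increases were scored, and knock-downs that hurt cell survival may mask genuine repressor factors.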 Unmarked entries are inactive. The numbers tell different reagents against one gene apart.

- Test: 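Host factors E2 relies on to silence an HPV18 LCR reporter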 (primary screen)
- Cell system: human C33A cervical carcinoma cells (HPV-negative) stably expressing BPV1 E2 and an HPV18 LCR luciferase reporter
- Knock-down reagent: siRNA pool against human genes, 40 nM
- Timing: 72 h
- Detection: 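Per-well luciferase luminescence, z-scored on each plate against the plate mean and SD with control wells left out, then averaged across three replicate plates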
- Reading the numbers: mean z-score and z-score: higher = stronger reporter signal, weaker E2 silencing
- Call rule: 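Hit if mean z-score reaches 2 and two or more of three replicate z-scores also reach 2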

gene	pool no.	mean z-score	z-score, replicate A	z-score, replicate B	z-score, replicate C
ZFP64	1	-0.56	-0.45	-0.62	-0.61
IGFBP2	1	-0.8	-0.47	-0.93	-1.01
P2RY2	1	-0.05	-0.06	-0.07	-0.03
LINC01579	1	-0.1	-0.51	-0.02	0.24
SEPTIN6	1	-1.08	-0.94	-1.17	-1.12
ANKRD27	1	0.03	-0.01	0.17	-0.06
S100A8	1	2.1 (active)	2.44	2.15	1.71
PASD1	1	-0.93	-1.48	-0.92	-0.39
WWC2	1	2.04 (active)	1.63	2.3	2.19
CFAP141	1	-0.06	-0.24	-0.06	0.13
SPOUT1	1	0.39	0.69	0.11	0.37
HLA-DOB	1	-2.07	-2.21	-2.13	-1.88
KRABD4	1	0.34	0.55	0.32	0.16
TPM4	1	0.16	-0.13	0.2	0.42
CLUHP3	1	1.82	1.65	1.83	1.99
TRIM34	1	0.03	0.22	0.01	-0.13
POU3F4	1	-0.83	-0.67	-0.84	-0.98
SLC27A2	1	-0.04	-0.46	-0.05	0.39
ATG4B	1	0.88	0.78	0.67	1.18
ABCG5	1	2.05	1.91	1.98	2.26
MEIS3	1	0.04	-0.03	0.25	-0.12
OR51E1	1	-0.46	-0.38	-0.47	-0.53
OVCH1	1	-0.52	-0.64	-0.72	-0.2
MT4	1	-0.87	-0.91	-0.65	-1.06
SLC25A28	1	1.08	0.92	1.39	0.94
OR7E91P	1	0.53	0.52	0.41	0.66
LOC100129603	1	-0.12	-0.17	0.05	-0.24
LOC100129603	2	-0.02	-0.17	0	0.12
EEF1AKMT2	1	0.89	1.06	1.03	0.58
FTH1	1	0.28	0.44	0.23	0.19
MKRN4P	1	0.81	0.81	0.79	0.84
RC3H2	1	-1.11	-1.02	-1.12	-1.2
TJP1	1	0.06	-0.05	0.14	0.11
ARFIP2	1	-0.07	-0.73	0.29	0.22
DMRTB1	1	0.35	-0.05	0.55	0.57
SUMO1	1	-0.47	-0.22	-0.67	-0.52
CYP1B1-AS1	1	0.92	0.91	0.83	1.02
TGM4	1	0.18	0.44	0.11	0
KIF3C	1	1.27	1.32	1.23	1.27
BNIP3	1	0.23	-0.08	0.37	0.39

Active calls (from the list above):
gene	pool no.	mean z-score	z-score, replicate A	z-score, replicate B	z-score, replicate C
S100A8	1	2.1 (active)	2.44	2.15	1.71
WWC2	1	2.04 (active)	1.63	2.3	2.19

Additional results follow.
gene	pool no.	mean z-score	z-score, replicate A	z-score, replicate B	z-score, replicate C
SRRM3	1	-0.84	-0.57	-0.91	-1.05
ADRA1B	1	-0.86	-0.97	-0.85	-0.77
LOC401553 (retired record)	1	-0.43	-0.66	-0.13	-0.5
EEF1A2	1	0.92	0.83	0.77	1.15
GRASLND	1	0.47	0.35	0.12	0.93
SH3BGR	1	0.26	0.2	0.58	0
HERPUD2	1	0.43	0.27	0.46	0.55
TAPT1	1	-0.76	-0.86	-0.9	-0.51
HPCA	1	-0.74	-0.6	-0.45	-1.18
STRN4	1	-0.13	0.25	0.03	-0.65
SSBP3	1	-1.11	-1.27	-1.07	-0.98
SYN3	1	-0.51	-0.64	-0.37	-0.52
ACKR4	1	-1.21	-1.28	-1.06	-1.29
CCL26	1	1.58	1.72	1.6	1.4
CD84	1	0.76	0.99	0.67	0.61
C17orf75	1	0.05	-0.31	0.16	0.29
FBXW4	1	0.64	0.57	0.55	0.79
CST8	1	0.05	-0.06	-0.11	0.32
PCDHA10	1	0.2	0.3	0.12	0.19
CCT7	1	1.4	1.71	1	1.49
TAF7	1	-0.61	-0.64	-0.55	-0.64
MED26	1	-3.35	-3.5	-3.49	-3.06
RBM43	1	0.17	0.05	0.43	0.03
PIK3C3	1	-0.03	-0.47	0.08	0.31
DRC7	1	-0.01	-0.11	-0.11	0.19
CD1D	1	-0.21	-0.29	-0.07	-0.27
FBXL19	1	-1.58	-1.67	-1.59	-1.49
CFHR4	1	1.19	0.85	1.29	1.42
GMFB	1	0.47	0.65	0.32	0.45
MAPK9	1	-0.37	-0.44	-0.46	-0.21
CHRNB4	1	-0.24	-0.3	-0.1	-0.33
TNIP3	1	-0.92	-0.72	-1.05	-0.98
SDHA	1	0.48	0.64	0.49	0.31
